The values that follow come from US20240269228A1 (priority 2021, published 2024).

Amino acid sequences for entries named in this document (tags omitted). Residues count along the entry.
UniProt P43144, 26-479 limits assumed: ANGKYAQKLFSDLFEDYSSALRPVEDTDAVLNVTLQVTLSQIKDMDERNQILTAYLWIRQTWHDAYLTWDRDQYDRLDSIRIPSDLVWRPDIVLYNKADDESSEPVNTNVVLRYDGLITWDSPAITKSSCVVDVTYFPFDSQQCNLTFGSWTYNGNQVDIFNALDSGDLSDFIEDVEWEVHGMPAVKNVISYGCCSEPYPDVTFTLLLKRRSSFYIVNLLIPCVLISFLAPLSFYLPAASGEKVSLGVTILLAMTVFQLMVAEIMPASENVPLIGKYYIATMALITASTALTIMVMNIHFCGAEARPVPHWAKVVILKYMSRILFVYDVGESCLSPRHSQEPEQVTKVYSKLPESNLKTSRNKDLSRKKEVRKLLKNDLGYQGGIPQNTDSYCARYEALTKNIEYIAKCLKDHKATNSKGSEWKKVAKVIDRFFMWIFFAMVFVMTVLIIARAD
UniProt Q9JLB5, 25-447 limits assumed: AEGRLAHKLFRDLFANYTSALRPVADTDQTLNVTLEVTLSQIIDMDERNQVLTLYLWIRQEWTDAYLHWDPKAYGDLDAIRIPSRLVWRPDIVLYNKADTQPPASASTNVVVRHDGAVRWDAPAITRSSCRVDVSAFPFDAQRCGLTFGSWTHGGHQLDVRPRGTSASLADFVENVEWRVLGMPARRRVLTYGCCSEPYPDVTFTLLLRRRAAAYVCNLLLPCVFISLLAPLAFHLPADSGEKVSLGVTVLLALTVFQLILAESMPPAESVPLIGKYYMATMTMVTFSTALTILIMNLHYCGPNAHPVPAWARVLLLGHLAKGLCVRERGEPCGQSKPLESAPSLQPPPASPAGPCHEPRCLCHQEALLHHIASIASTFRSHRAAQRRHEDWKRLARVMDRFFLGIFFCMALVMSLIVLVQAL
UniProt Q9GZZ6, 25-450 limits assumed: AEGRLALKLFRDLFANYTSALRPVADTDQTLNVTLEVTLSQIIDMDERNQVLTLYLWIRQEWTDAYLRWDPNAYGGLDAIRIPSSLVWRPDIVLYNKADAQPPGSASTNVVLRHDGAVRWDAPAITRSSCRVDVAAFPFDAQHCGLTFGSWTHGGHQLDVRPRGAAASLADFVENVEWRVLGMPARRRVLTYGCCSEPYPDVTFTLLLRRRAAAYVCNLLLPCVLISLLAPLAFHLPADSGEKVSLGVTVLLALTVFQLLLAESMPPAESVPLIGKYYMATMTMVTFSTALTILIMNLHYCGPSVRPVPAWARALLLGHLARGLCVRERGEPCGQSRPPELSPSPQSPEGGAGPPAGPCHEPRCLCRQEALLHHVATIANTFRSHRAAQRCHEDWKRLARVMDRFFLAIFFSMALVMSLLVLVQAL
UniProt Q9UGM1, 26-479 limits assumed: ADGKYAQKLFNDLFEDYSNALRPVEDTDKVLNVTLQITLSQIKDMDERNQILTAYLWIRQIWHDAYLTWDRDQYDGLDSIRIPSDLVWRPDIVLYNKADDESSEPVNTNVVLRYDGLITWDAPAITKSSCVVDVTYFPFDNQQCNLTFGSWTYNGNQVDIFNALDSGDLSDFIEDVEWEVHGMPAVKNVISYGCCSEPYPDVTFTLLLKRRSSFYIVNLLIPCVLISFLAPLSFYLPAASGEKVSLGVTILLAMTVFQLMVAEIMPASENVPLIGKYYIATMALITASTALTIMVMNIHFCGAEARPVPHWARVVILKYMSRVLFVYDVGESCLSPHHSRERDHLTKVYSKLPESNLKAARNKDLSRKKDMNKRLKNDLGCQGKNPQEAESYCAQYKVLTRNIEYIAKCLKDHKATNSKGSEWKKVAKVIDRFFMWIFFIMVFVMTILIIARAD
UniProt P36544, 23-502 limits assumed: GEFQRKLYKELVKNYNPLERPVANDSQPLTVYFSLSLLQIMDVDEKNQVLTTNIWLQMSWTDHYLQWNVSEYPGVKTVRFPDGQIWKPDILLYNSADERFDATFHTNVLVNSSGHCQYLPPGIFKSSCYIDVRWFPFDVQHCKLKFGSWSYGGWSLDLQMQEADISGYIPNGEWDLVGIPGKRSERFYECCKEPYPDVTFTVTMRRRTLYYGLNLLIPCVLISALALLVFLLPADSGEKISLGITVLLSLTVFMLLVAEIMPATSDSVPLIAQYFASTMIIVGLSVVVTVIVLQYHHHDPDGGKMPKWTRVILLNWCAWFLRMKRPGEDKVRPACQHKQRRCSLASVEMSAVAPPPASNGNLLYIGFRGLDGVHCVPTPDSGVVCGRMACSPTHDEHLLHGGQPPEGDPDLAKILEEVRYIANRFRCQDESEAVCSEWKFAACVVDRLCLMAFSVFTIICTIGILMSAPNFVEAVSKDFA
UniProt Q05941, 23-502 limits assumed: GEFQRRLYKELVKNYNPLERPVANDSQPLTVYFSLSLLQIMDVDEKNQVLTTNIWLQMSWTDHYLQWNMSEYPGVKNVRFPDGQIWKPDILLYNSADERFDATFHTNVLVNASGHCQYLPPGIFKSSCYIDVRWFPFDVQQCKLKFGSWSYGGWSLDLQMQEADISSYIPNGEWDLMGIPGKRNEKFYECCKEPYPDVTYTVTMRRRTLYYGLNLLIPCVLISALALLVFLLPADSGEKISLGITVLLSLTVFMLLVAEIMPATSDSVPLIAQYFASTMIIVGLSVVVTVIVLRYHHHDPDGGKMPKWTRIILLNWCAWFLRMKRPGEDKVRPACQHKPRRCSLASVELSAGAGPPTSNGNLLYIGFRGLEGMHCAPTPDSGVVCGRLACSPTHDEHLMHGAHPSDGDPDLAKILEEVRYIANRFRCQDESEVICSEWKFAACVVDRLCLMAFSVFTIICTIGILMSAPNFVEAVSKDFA
UniProt P32238, whole entry: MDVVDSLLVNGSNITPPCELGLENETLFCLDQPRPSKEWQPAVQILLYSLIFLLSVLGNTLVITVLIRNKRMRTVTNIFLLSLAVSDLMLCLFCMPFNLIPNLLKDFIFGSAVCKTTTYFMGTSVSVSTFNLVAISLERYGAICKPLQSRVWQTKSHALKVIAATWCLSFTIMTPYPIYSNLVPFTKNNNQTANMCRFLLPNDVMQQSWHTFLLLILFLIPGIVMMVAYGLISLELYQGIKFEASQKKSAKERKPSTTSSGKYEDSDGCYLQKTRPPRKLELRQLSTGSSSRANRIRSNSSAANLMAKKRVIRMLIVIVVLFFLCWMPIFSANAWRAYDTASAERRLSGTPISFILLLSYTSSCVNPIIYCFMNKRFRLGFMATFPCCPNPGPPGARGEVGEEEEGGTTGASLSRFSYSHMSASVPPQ
UniProt P25105, whole entry: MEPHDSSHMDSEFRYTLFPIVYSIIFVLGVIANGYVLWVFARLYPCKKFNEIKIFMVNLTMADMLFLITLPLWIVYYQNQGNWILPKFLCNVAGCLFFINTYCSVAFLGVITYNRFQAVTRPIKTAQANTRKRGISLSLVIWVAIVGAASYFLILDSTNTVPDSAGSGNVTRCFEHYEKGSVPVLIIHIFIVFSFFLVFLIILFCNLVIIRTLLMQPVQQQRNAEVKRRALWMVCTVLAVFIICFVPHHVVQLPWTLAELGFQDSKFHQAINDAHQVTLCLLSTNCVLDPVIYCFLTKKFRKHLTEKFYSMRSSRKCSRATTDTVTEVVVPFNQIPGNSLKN
UniProt P25101, 21-427 limits assumed: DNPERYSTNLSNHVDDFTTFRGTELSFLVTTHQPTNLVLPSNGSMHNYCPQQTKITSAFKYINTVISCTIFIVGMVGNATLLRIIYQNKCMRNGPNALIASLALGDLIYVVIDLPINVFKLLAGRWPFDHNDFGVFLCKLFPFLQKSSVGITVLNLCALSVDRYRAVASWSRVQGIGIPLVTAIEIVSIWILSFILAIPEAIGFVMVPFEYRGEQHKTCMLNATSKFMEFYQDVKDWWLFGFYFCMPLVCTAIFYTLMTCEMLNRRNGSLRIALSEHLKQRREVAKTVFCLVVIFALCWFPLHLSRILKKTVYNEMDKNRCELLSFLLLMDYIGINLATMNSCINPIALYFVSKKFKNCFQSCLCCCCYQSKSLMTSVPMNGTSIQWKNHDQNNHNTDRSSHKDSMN
UniProt P08172, whole entry: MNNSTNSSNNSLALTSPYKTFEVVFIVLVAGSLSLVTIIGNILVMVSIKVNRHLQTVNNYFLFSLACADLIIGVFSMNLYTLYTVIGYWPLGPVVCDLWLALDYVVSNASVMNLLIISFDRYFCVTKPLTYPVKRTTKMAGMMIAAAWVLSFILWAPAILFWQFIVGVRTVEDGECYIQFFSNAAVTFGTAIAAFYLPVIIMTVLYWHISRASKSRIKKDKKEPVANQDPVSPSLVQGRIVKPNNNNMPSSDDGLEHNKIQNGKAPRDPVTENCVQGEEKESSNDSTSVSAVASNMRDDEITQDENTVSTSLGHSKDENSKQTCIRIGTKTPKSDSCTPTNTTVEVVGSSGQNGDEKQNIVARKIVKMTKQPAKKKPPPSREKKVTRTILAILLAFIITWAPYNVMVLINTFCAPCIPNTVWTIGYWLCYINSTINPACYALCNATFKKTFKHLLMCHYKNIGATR
UniProt P04150, whole entry: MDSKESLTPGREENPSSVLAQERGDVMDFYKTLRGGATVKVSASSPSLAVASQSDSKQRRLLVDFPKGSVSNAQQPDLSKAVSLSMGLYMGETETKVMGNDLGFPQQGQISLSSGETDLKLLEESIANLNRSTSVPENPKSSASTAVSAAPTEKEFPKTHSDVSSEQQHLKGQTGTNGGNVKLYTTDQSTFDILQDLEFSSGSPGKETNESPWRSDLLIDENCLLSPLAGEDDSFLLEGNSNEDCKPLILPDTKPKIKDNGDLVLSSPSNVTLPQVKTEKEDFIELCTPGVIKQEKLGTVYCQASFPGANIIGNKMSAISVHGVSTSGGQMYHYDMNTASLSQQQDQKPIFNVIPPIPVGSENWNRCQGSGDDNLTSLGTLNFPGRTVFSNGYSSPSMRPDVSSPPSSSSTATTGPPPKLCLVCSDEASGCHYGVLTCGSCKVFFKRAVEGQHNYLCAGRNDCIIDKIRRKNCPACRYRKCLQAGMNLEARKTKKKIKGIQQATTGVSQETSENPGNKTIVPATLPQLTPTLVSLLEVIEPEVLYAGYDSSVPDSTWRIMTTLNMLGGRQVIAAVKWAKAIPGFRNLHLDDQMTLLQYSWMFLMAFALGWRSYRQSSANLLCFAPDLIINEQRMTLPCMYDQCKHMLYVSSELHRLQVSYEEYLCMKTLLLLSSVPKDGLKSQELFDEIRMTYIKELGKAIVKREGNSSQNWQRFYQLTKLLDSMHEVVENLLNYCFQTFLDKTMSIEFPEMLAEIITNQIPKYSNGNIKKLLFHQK
UniProt P32239, whole entry: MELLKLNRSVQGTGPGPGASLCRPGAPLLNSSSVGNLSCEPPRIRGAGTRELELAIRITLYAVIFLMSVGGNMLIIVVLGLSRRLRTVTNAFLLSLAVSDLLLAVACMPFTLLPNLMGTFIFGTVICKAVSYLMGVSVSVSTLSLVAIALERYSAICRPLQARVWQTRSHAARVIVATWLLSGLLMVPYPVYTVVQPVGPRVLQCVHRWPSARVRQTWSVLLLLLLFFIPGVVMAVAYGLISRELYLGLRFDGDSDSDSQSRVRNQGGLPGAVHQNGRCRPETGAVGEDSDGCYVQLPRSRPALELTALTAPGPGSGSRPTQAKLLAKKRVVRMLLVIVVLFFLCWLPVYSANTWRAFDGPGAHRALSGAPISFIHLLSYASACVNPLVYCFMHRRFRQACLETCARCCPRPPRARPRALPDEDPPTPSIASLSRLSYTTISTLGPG
UniProt P34998, 24-415 limits assumed: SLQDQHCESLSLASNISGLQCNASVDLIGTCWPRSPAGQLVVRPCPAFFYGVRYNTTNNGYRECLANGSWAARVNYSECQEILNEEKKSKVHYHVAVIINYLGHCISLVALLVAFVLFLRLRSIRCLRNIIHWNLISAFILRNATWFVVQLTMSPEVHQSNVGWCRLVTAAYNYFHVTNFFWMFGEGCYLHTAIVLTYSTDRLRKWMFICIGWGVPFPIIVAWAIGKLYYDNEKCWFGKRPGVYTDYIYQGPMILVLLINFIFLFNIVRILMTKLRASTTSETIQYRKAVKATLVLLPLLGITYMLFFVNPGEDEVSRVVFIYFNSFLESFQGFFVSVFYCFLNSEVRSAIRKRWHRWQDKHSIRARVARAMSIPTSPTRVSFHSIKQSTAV

Data set [1] in a line: Serum-stability assay in 25% human serum (RP-HPLC). The settings on record: 37 C, 24 h, n=6, area under the HPLC peak.
For another data set, the target named is rat α9α10 nAChR (Rattus norvegicus, UniProt P43144+Q9JLB5). The data set is described as follows: Two-electrode voltage clamp, Xenopus oocytes expressing the receptor. The settings on record: r α9α10. Background: Two-electrode voltage clamp holds a large cell at a set potential and records current.
A further data set addresses human α9α10 nAChR (Homo sapiens, UniProt Q9GZZ6+Q9UGM1). The data set is described as above.
Another data set deals with human α7 nAChR (Homo sapiens, UniProt P36544). Described as above.
For another data set, the target named is rat α7 nAChR (Rattus norvegicus, UniProt Q05941). The data set is described as above.
Another data set deals with Cholecystokinin CCK1 (Homo sapiens, UniProt P32238). The data set can be described thus: Radioligand binding assay (Eurofins Cerep). The settings on record: 10 μM; radioligand [^125I]CCK-8s.
In the next data set the test system is Glutamate kainite site. The data set can be described thus: Radioligand binding assay (Eurofins Cerep). The settings on record: 10 μM; radioligand [^3H] kainic acid; rat.
The target of data set [2] is Platelet activating factor (Homo sapiens, UniProt P25105). The data set can be described thus: Radioligand binding assay (Eurofins Cerep). The settings on record: 10 μM; radioligand [^3H]C16-PAF.
A further data set relates to Sodium Channel (site 2). The data set is described as follows: Radioligand binding assay (Eurofins Cerep). The settings on record: 10 μM; radioligand [^3H]batrachotoxin; rat.
Data set [3] relates to Ca^2+ channel (L type, ditiazem site) (benzothiazepines). The data set is described as follows: Radioligand binding assay (Eurofins Cerep). The settings on record: 10 μM; radioligand [^3H]diltiazem; rat.
The next data set addresses Opioid δ2 (DOP) (Homo sapiens, UniProt P41143). The data set is described as follows: Radioligand binding assay (Eurofins Cerep). The settings on record: 10 μM; radioligand [^3H]DADLE.
Another data set addresses Endothelin ETA (Homo sapiens, UniProt P25101). The data set can be described thus: Radioligand binding assay (Eurofins Cerep). The settings on record: 10 μM; radioligand [^125I]Endothelin-1.
The target of the next data set is Muscarinic M2 (Homo sapiens, UniProt P08172). The data set is described as follows: Radioligand binding assay (Eurofins Cerep). The settings on record: 10 μM; radioligand [^3H]AF-DX 384.
The target of the next data set is Glucocorticoids receptor (Homo sapiens, UniProt P04150). The data set is described as follows: Radioligand binding assay (Eurofins Cerep). The settings on record: 10 μM; radioligand [^3H]dexamethasone.
The next data set deals with Angiotensin AT1 (Homo sapiens, UniProt P30556). The data set can be described thus: Radioligand binding assay (Eurofins Cerep). The settings on record: 10 μM; radioligand [^125I][ Sar^1, Ile^8]-AT-II.
Data set [4] has as its system ATP sensitive potassium channel. The data set is described as follows: Radioligand binding assay (Eurofins Cerep). The settings on record: 10 μM; radioligand [^3H]glibenclamide; rat.
Data set [5] relates to α2 adrenergic (non-selective). The data set can be described thus: Radioligand binding assay (Eurofins Cerep). The settings on record: 10 μM; radioligand [^3H]RX 821002; rat.
Another data set concerns the target Cholecystokinin CCK2 (Homo sapiens, UniProt P32239). The data set can be described thus: Radioligand binding assay (Eurofins Cerep). The settings on record: 10 μM; radioligand [^125I]CCK-8s.
For data set [6], the target named is Corticotropin-releasing factor CRF1 (Homo sapiens, UniProt P34998). The data set can be described thus: Radioligand binding assay (Eurofins Cerep). The settings on record: 10 μM; radioligand [^125I]sauvagine.

This is a selection: effects in other tests are not listed, and their absence says nothing.

Compound `C[C@@H](O)[C@@H]1NC(=O)[C@H]2NC(=O)[C@@H](NC(=O)CN)CSSC[C@H](NC(=O)[C@H](CCCNC(=N)N)NC(=O)[C@@H]3CCCN3C(=O)[C@H](CC(=O)O)NC1=O)C(=O)N[C@@H](CCCNC(=N)N)C(=O)N[C@@H](Cc1ccc(O)c(I)c1)C(=O)N[C@@H](CCC(N)=O)C(=O)N[C@H](C(=O)N[C@H](CC(=O)N[C@@H](CCCNC(=N)N)C(=O)O)Cc1ccc(O)cc1)CSSC2(C)C` gave a globular form present in data set [1] of 94%. For the same compound, in [1], the ribbon form present worked out at 6%. The figures for the Hill slope values on rat α9α10 nAChR, on human α9α10 nAChR (h α9α10) and on human α7 nAChR (h α7) were 2.7 ± 0.8, 0.73 ± 0.08 and 1.3 ± 0.1, respectively. The same compound registered an increased potency on the human α9α10 nAChR on human α9α10 nAChR (compared to the RgIA4 peptide) of 30 ×. In addition, at human α9α10 nAChR (saturating concentration 10 nM), the “recovery after 5 min peptide washout” value is listed as 3%. This compound registered an increased potency over the native RgIA on the human α9α10 nAChR on human α9α10 nAChR (vs native RgIA) of 9000 ×. This compound also registered a lower potency compared to the human α9α10 nAChR at human α7 nAChR (human α7 vs human α9α10 nAChR) of 2000 ×. Also, the “potency for rat α7” value at rat α7 nAChR is recorded as “significant decrease in potency”. Also, the “Inhibition [%]” value at Cholecystokinin CCK1 was −25.1%; in the data set on Glutamate kainite site, −19.9%; in data set [2], 9.1%; in the data set on Sodium Channel (site 2), 7.2%; in data set [3] it was −16.5%; on Opioid δ2 (DOP) it was 4.5%. Also, the “Inhibition [%]” value at Endothelin ETA is listed as −17.9%; at Muscarinic M2, 27.2%; on Glucocorticoids receptor, 0.6%; on Angiotensin AT1 it was −13.6%; in data set [4], −25.8%; in [5], 0%. Moreover, the results for the “Inhibition [%]” value (on Cholecystokinin CCK2; in data set [6]) were 11.8% and −5.3%, respectively.
